Measurements published in patent US20180009877A1 (ACADEMIA SINICA, published 2018).

Tests used:
polypeptide HER2/ECD [1] = target: T1, polypeptide HER2/ECD (human, UniProt P04626 23-646); assay: ELISA, IgG on immobilized HER2/ECD
polypeptide HER2/ECD [2] = target: T1, polypeptide HER2/ECD; assay: SPR (BIAcore), HER2/ECD immobilized, IgG in flow

B1: GH2-61 (antibody)
chain: DIQMTQSPSSLSASVGDRVTITCRASQDVGSNVAWYQQKPGKAPKLLISWSTSLYSGVPSRFSGSGSGTDFTLTISSLQPEDFATYYCQQYGGWPITFGQGTKVEIKRGGGGSIEGRSGGGGSEVQLVESGGGLVQPGGSLRLSCAASGFTINNWGIHWVRQAPGKGLEWVAGIWPYGGYTYYADSVKGRFTISADTSKNTAYLQMNSLRAEDTAVYYCARFYNHHGGVMDYWGQGTLVTVSSASAAA
Polypeptide HER2/ECD [1]
  EC50: 3.5 ng/mL
Polypeptide HER2/ECD [2]
  Kd: 0.27 nM
  koff: 0.000104 s⁻¹
  kon: 387000 M⁻¹ s⁻¹
